Patent US20210038681A1, “PHARMACEUTICAL COMPOSITION FOR TREATING VIRAL HEPATITIS C” (priority 2018, published 2021)

Columns and labels:
[1] = tested on: HCV 1a L31V + Y93H replicon; assay: microbe, parasite or virus in culture; settings: Hepatitis C virus, Huh-7, read-out: Mean EC50 (nM) ± SD
[2] = tested on: HCV 1a L31V + Y93H replicon; settings: read-out: Mean EC50 (nM) ± SD; HCV 1a variant L31V + Y93H; Huh7-Lunet cells

| SMILES | EC50 [1] | EC50 [2] |
| --- | --- | --- |
| CNC(=O)c1c(-c2ccc(F)cc2)oc2cc(N(CCO)S(C)(=O)=O)c(C3CC3)cc12 [HCV-796] | 11.4 nM | – |
| COC(=O)N[C@H](C(=O)N1CCC[C@H]1c1ncc(-c2ccc3cc(-c4ccc5nc([C@@H]6CCCN6C(=O)[C@@H](NC(=O)OC)C(C)C)[nH]c5c4)ccc3c2)[nH]1)C(C)C [ASC16, Ravidasvir] | 1160 nM | – |
| C[C@@]1(F)[C@H](O)[C@@H](CO)O[C@H]1n1ccc(N)nc1=O [PSI-6130] | – | 548 nM |
| CC(C)(C)OC(=O)N[C@H]1CCCCC/C=C\[C@@H]2C[C@@]2(C(=O)NS(=O)(=O)C2CC2)NC(=O)[C@@H]2C[C@@H](OC(=O)N3Cc4cccc(F)c4C3)CN2C1=O [ASC08, Danoprevir] | 4.1 nM | – |

Read-outs that look alike come from different tables or passages of the source.
